Laboratory results from article PMC12851581, “Allosteric effects of the coupling cation in melibiose transporter MelB” (eLife, 2026).

Amino acid sequences for entries named in this document (tags omitted).
UniProt P30878, whole entry D59C: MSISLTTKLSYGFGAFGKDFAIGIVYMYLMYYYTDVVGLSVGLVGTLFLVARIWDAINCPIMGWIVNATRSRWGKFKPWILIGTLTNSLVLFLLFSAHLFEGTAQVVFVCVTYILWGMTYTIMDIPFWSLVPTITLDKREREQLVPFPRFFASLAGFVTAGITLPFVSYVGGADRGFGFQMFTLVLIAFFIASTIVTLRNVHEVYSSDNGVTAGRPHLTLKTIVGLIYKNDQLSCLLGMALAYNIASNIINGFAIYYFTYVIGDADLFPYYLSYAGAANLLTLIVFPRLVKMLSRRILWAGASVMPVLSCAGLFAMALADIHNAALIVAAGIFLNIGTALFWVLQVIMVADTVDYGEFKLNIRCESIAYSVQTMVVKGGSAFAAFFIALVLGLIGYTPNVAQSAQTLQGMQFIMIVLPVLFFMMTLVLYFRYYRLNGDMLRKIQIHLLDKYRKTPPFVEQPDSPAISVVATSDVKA

Target: T1, melibiose permease MelBSt (D59C uniporter mutant) (Salmonella enterica, UniProt P30878, D59C)
T1 construct: gene melB; D59C MelBSt/CHis10; modeled from positions 2–453 or 455
Assay: X-ray crystal structure, […] Å ([…] Å in Methods); ITC also run
Type: binding

For OC[C@H]1O[C@H](OC[C@H]2O[C@H](O[C@]3(CO)O[C@H](CO)[C@@H](O)[C@@H]3O)[C@H](O)[C@@H](O)[C@@H]2O)[C@H](O)[C@@H](O)[C@H]1O [raffinose, Raffinose], the “X-ray crystal structure, 3.40 Å (3.45 Å in Methods); ITC also run” value was “density map displayed a clear three-unit blob in the binding pocket, fitting well with this trisaccharide”.
